Anti-infective test results gathered from many reports (values: NIAID ChemDB through PubChem).

Shared fields: growth or infection tests; species: Mycobacterium tuberculosis

MIC bound comes from a single tested concentration.

{"structure": "Cc1cc2nc3c(=O)[nH]c(=O)nc-3n(CC(O)C(O)C(O)COB(O)O)c2cc1C", "strain": "H37Rv", "read by": "BACTEC", "measure": "inhibition", "tested at": "6.25 µg/mL", "result": "0%"}
{"structure": "CCCCC(CC)CN1CN(CC(CC)CCCC)CC(C)(NCCNCc2ccc3c(c2)OCO3)C1", "measure": "MIC", "result": "12.5 µM"}
{"structure": "COc1ccc(C2CC(=O)c3c(cc(OC)c(-c4c(OC)cc5c(c4OC)C(=O)CC(c4ccc(OC)cc4)O5)c3OC)O2)cc1", "measure": "EC50", "result": ">12.5 µg/mL"}
{"structure": "CO[C@H]1/C=C/O[C@@]2(C)Oc3c(C)c(O)c4c(=O)c(c5oc6cc(N7CCN(CC(C)C)CC7)cc(=O)c6nc5c4c3=C2O)NC(=O)/C(C)=C\\C=C\\[C@H](C)[C@H](O)[C@@H](C)[C@@H](O)[C@@H](C)[C@H](OC(C)=O)[C@@H]1C", "strain": "2749 (rifampin-sensitive)", "measure": "MBC", "result": "0.025 µg/mL"}
{"structure": "CCCCC(CC)CN1CN(CC(CC)CCCC)CC(C)(NCCNC(C)CC)C1", "measure": "MIC", "result": "6.25 µM"}
{"structure": "COc1cc(NCCCO)c2ncccc2c1.Cl", "strain": "H37Rv", "measure": "MIC", "result": "50 µg/mL"}
{"structure": "CC(C)c1ccc2c(c1)CC[C@H]1[C@](C)(CNCCNCC(c3ccccc3)c3ccccc3)CCC[C@]21C", "measure": "MIC", "result": "12.5 µM"}
{"structure": "COc1ccc(N)cc1NC(=O)CC(=O)c1ccccc1OC", "strain": "H37Rv", "measure": "MIC", "result": "50 µg/mL"}
{"structure": "NC1CCN(c2c(F)cc3c(=O)c(C(=O)O)cn(C4CC4)c3c2Cl)C1", "strain": "ATCC 35823", "measure": "MBC", "result": "0.25 µg/mL"}
{"structure": "Oc1ccc(/C=N/NC(=S)Nc2cccnc2)nc1", "strain": "H37Rv", "read by": "resazurin", "measure": "inhibition", "tested at": "6.25 µg/mL", "result": "4%"}
{"structure": "COc1cc(CCNCCNC[C@]2(C)CCC[C@]3(C)c4ccc(C(C)C)cc4CC[C@@H]23)ccc1O", "measure": "MIC", "result": "12.5 µM"}
{"structure": "CC(=O)Nc1ccc(S(=O)(=O)Nc2nc3ccc(C)cc3s2)cc1", "strain": "H37Rv", "measure": "MIC", "result": "100 µg/mL"}
{"structure": "CC1=C2N3C[C@@H](n4c(=O)n(C)c(=O)n43)[C@@]23CC[C@@H]1n1c(=O)n(C)c(=O)n13", "strain": "H37Rv", "measure": "MIC bound", "result": ">6.25 µg/mL"}
{"structure": "C[C@@H]1CN(c2c(F)c(N)c3c(=O)c(C(=O)O)cn(C4CC4)c3c2F)C[C@H](C)N1", "strain": "ATCC 35822", "measure": "MIC", "result": "0.125 µg/mL"}
{"structure": "CC[N+](CC)=c1ccc2nc3c(cc(NCc4ccccc4)c4ccccc43)oc-2c1", "strain": "H37Rv", "read by": "BACTEC", "measure": "inhibition", "tested at": "12.5 µg/mL", "result": "99%"}
{"structure": "O=C(Nc1cc(Cl)ccc1O)c1ccccc1", "strain": "H37Rv", "measure": "MIC", "result": ">100 µg/mL"}
{"structure": "CO[C@H]1/C=C/O[C@@]2(C)Oc3c(C)c(O)c4c(O)c(c5c(c4c3C2=O)NC2(CCN(CC(C)C)CC2)N=5)=NC(=O)/C(C)=C\\C=C\\[C@H](C)[C@H](O)[C@@H](C)[C@@H](O)[C@@H](C)[C@H](OC(C)=O)[C@@H]1C", "strain": "2749 (rifampin-sensitive)", "measure": "MIC", "result": "0.05 µg/mL"}
{"structure": "CCCCN(CCNC[C@@H]1CC[C@H]2C[C@@H]1C2(C)C)Cc1ccccc1", "measure": "MIC", "result": "50 µM"}
{"structure": "CC(NCCNC1CCCCCCC1)C12CC3CC(CC(C3)C1)C2", "measure": "MIC", "result": "50 µM"}
{"structure": "CC(=O)C(N=Nc1ccc(S(=O)(=O)NC2ONC(C)C2C)cc1)C(=O)Nc1cccc2ccccc12", "strain": "H37Rv", "read by": "BACTEC", "measure": "inhibition", "tested at": "12.5 µg/mL", "result": "-4%"}
{"structure": "O=C(c1cccs1)c1ccccc1I", "strain": "H37Rv", "measure": "MIC", "result": "50 µg/mL"}
{"structure": "O=c1cc(-c2ccccc2-c2cccc3c(=O)cc(-c4ccccc4)oc23)oc2ccccc12", "strain": "H37Rv", "measure": "EC50", "result": ">12.5 µg/mL"}
{"structure": "O=c1cc(-c2ccccc2)[nH]n1-c1nn[nH]n1", "strain": "H37Rv", "measure": "MIC", "result": ">100 µg/mL"}
{"structure": "COc1ccc2[nH]c3c(C)c4ccncc4c(C)c3c2c1", "strain": "RMP-R", "measure": "MIC", "result": "0.2 µg/mL"}
{"structure": "c1ccc(C(CCNCCN2CCCC3CCCCC32)c2ccccc2)cc1", "measure": "MIC", "result": "12.5 µM"}
{"structure": "NCC[C@H](O)C(=O)N[C@@H]1C[C@H](N)[C@@H](O[C@H]2O[C@H](CN)[C@@H](O)[C@H](O)[C@H]2O)[C@H](O)[C@H]1O[C@H]1O[C@H](CO)[C@@H](O)[C@H](N)[C@H]1O", "strain": "MDR17", "read by": "broth dilution / resazurin", "measure": "MIC", "result": "1 µg/mL"}
{"structure": "c1ccc(CCCNCCNCCN2CCOCC2)cc1", "measure": "MIC", "result": "50 µM"}
{"structure": "NC1CCN(c2nc3c(cc2F)c(=O)c(C(=O)O)cn3-c2ccc(F)cc2F)C1", "strain": "ATCC 35820", "measure": "MBC", "result": ">8 µg/mL"}
{"structure": "Cl.Cl.NOCc1cnccn1", "strain": "H37Rv", "read by": "BACTEC", "measure": "MIC bound", "result": ">12.5 µg/mL"}
{"structure": "Nc1ccc(Nc2nc3ccccc3o2)cc1", "strain": "H37Rv", "measure": "MIC", "result": ">100 µg/mL"}
{"structure": "CCCCCCCCCCCNCCNCc1ccccc1", "measure": "MIC", "result": "25 µM"}
{"structure": "CNC(=O)CCCCCCCCC(=O)NC", "strain": "H37Rv", "measure": "MIC", "result": ">100 µg/mL"}
{"structure": "O=C1CC(c2ccccc2)Oc2cc(I)ccc21", "strain": "H37Rv", "measure": "inhibition", "tested at": "12.5 µg/mL", "result": "20%"}
{"structure": "Cc1ccc(Cl)c2c1C(=O)c1ccccc1C2=O", "strain": "H37Rv", "measure": "MIC", "result": ">100 µg/mL"}
{"structure": "O=C1CC(c2ccccc2)Oc2cc(Cl)ccc21", "measure": "EC50", "result": ">12.5 µg/mL"}
{"structure": "O=c1cc2oc3cc(O)c(O)cc3c(-c3ccccc3O)c-2cc1O", "strain": "H37Rv", "read by": "BACTEC", "measure": "inhibition", "tested at": "12.5 µg/mL", "result": "-8%"}
{"structure": "O=C(OC(=O)c1cccc2ccccc12)c1cccc2ccccc12", "strain": "H37Rv", "measure": "MIC", "result": ">100 µg/mL"}
{"structure": "CC1CCCC(NCCNC[C@@H]2CC[C@H]3C[C@@H]2C3(C)C)C1C", "measure": "MIC", "result": "6.25 µM"}
{"structure": "CNC(=O)OCc1nc(N=[N+]=[N-])n(C)c1COC(=O)NC", "strain": "H37Rv", "read by": "resazurin", "measure": "MIC bound", "result": ">6.25 µg/mL"}
{"structure": "COc1ccc(CNCCNCCC2=CCCCC2)c(OC)c1", "measure": "MIC", "result": "50 µM"}
{"structure": "O=C1c2cccc(Cl)c2C(=O)c2cccc(Cl)c21", "strain": "H37Rv", "measure": "MIC", "result": "50 µg/mL"}
{"structure": "Nc1cccc2[nH]c(=O)c3ccccc3c12", "strain": "H37Rv", "read by": "BACTEC", "measure": "inhibition", "tested at": "12.5 µg/mL", "result": "27%"}
{"structure": "Cc1ccccc1OCC(=O)O", "strain": "H37Rv", "measure": "MIC", "result": ">100 µg/mL"}
{"structure": "O=C(NCCO)C(=O)N/N=C/c1ccc([N+](=O)[O-])o1", "strain": "INH-r", "measure": "MIC", "result": "3.1 µg/mL"}
{"structure": "NC(=S)NC(N)=S", "strain": "H37Rv", "measure": "MIC", "result": ">100 µg/mL"}
{"structure": "C[C@H]1COc2c(N3CCN(C)CC3)c(F)cc3c(=O)c(C(=O)O)cn1c23", "strain": "ATCC 35827", "measure": "MIC", "result": "0.25 µg/mL"}
{"structure": "Cc1ccc(OP(Oc2ccc(C)cc2)Oc2ccc(C)cc2)cc1", "strain": "H37Rv", "measure": "MIC", "result": ">100 µg/mL"}
{"structure": "CC(C)c1ccc2c(c1)CC[C@H]1[C@](C)(CNCCNCCc3ccccc3Cl)CCC[C@]21C", "measure": "MIC", "result": "50 µM"}
{"structure": "Nc1nc(N)c(N=Nc2ccc(S(N)(=O)=O)cc2)c(N)n1", "strain": "H37Rv", "read by": "BACTEC", "measure": "MIC bound", "result": ">12.5 µg/mL"}
{"structure": "COc1ccc(CCNCCNCC23CC4CC(CC(C4)C2)C3)cc1OC", "measure": "MIC", "result": "6.25 µM"}
{"structure": "CCOC(=O)C1=C(NC)OC/C1=N/NC(=O)c1ccccc1O", "strain": "H37Rv", "read by": "BACTEC", "measure": "MIC bound", "result": ">12.5 µg/mL"}
{"structure": "COc1ccc(NC(C)=O)c2c1oc1ccccc12", "strain": "H37Rv", "measure": "MIC", "result": ">100 µg/mL"}
{"structure": "CCOC(=O)/C(C#N)=C/c1ccc([N+](=O)[O-])o1", "strain": "H37Rv", "read by": "BACTEC", "measure": "MIC", "result": "≥12.5 µg/mL"}
{"structure": "O=C(/C=C/c1ccccc1)c1ccco1", "measure": "EC50", "result": "<12.5 µg/mL"}
{"structure": "CNc1cc(Br)c(N)c2c1C(=O)c1ccccc1C2=O", "strain": "H37Rv", "measure": "MIC", "result": ">100 µg/mL"}
{"structure": "CCCCC(CC)CN1CN(CC(CC)CCCC)CC(C)(NCCNN2CCCC2)C1", "measure": "MIC", "result": "50 µM"}
{"structure": "C/C(=N\\NC(=O)c1cccnc1)c1cccc(/C(C)=N/NC(=O)c2cccnc2)n1", "strain": "INH-r", "measure": "MIC", "result": ">12.5 µg/mL"}
{"structure": "CC(C)c1ccc(/C=C/C(=O)O)cc1", "strain": "H37Rv", "measure": "MIC", "result": "50 µg/mL"}
{"structure": "CC(CCN1CCN(CCC(C)CC(C)(C)C)C1=O)CC(C)(C)C", "strain": "H37Rv", "read by": "resazurin", "measure": "MIC", "result": "12.5 µg/mL"}
{"structure": "CCCCCc1ccc(Oc2ccc([N+](=O)[O-])cc2C(=O)Nc2cccc(NC(C)=O)c2)c(CCCCC)c1", "strain": "H37Rv", "measure": "MIC", "result": ">100 µg/mL"}
{"structure": "O=C(N/C=C(\\c1ccccc1)S(=O)Cc1ccccc1)Nc1ccccc1Cl", "strain": "H37Rv", "read by": "BACTEC", "measure": "inhibition", "tested at": "12.5 µg/mL", "result": "22%"}
{"structure": "CC1=C(O)c2ccccc2C(=O)C1=O", "strain": "H37Rv", "measure": "MIC", "result": "50 µg/mL"}
{"structure": "OC1CC2c3ccccc3C1c1cccc[n+]12", "strain": "H37Rv", "read by": "BACTEC", "measure": "MIC bound", "result": ">12.5 µg/mL"}
{"structure": "COc1ccc2[nH]cc(CCNCCNCC(C)c3ccccc3)c2c1", "measure": "MIC", "result": "50 µM"}
{"structure": "CNc1nc(NC)nc(NNC(=O)c2ccccc2)n1", "strain": "H37Rv", "read by": "BACTEC", "measure": "MIC", "result": "≥12.5 µg/mL"}
{"structure": "O=C1c2ccccc2OC(c2ccccc2)C1(Br)Br", "strain": "H37Rv", "measure": "inhibition", "tested at": "12.5 µg/mL", "result": "0%"}
{"structure": "Cc1ccc(S(=O)(=O)OCC(OS(=O)(=O)c2ccc(C)cc2)C2OC(c3ccccc3)OC3COC(c4ccccc4)OC32)cc1", "strain": "H37Rv", "read by": "BACTEC", "measure": "MIC bound", "result": ">12.5 µg/mL"}
{"structure": "Nc1nnns1", "strain": "H37Rv", "measure": "MIC", "result": ">100 µg/mL"}

For reference, 4 entries again:

c1ccc(C(CCNCCN2CCCC3CCCCC32)c2ccccc2)cc1 ; measure: MIC ; result: 12.5 µM
O=c1cc2oc3cc(O)c(O)cc3c(-c3ccccc3O)c-2cc1O ; strain: H37Rv ; read by: BACTEC ; measure: inhibition ; tested at: 12.5 µg/mL ; result: -8%
O=C(c1cccs1)c1ccccc1I ; strain: H37Rv ; measure: MIC ; result: 50 µg/mL
COc1ccc(C2CC(=O)c3c(cc(OC)c(-c4c(OC)cc5c(c4OC)C(=O)CC(c4ccc(OC)cc4)O5)c3OC)O2)cc1 ; measure: EC50 ; result: >12.5 µg/mL

Neighbouring rows are from separate reports. ECn: concentration that inhibits the pathogen or its effect by n%. Inhibition is in % at the dose shown (toxicity tests: loss of growth or viability).